Results of single-concentration screens

From ChEMBL document CHEMBL3988442, “University of Dundee, Small-Polar-MMV Screening Library” (2021).

Mtb cholesterol medium: 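Growth of Mycobacterium tuberculosis over 4 days (cholesterol / DPPC medium with tyloxapol); the read-out is not stated. Concentration: 500 µM. Higher reads as more growth inhibition (inferred: compounds with an IC50 in retests scored well above the rest). Of about 18,000 compounds tested this way, about 900 (5%) reached 50% or more in at least one test.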
Mtb glucose medium: 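Phenotypic screen: M. tuberculosis growth, glucose 7H9 medium, 3 days; the read-out is not stated. Concentration: 500 µM. Direction is inferred from retests: higher values go with more growth inhibition. Size under these conditions: about 18,000 compounds, about 1,400 of them at 50% or above in at least one test.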

Values are the deposited “Percent Effect”, in %.
The controls that fix the scale are not given in the record; negative values are as filed.
The entries come from a sample that favours strong results.
A dash means the value is not listed here; it may have been measured.

{"compound": "O=S(=O)(c1ccco1)N1CCSC2(CCOCC2)C1", "Mtb cholesterol medium": 31.86, "Mtb glucose medium": 49.28}
{"compound": "CC(Cn1c(=O)[nH]c2ccccc2c1=O)N1CCCC1", "stereo": "centres undefined", "Mtb cholesterol medium": 50.89, "Mtb glucose medium": 70.6}
{"compound": "O=C(NCC1CCS(=O)(=O)CC1)c1cc2sccc2[nH]1", "Mtb glucose medium": 15.26}
{"compound": "CC(C)[C@H]1CN(C(=O)c2cnc3c(c2)CCC3)C[C@@H]1N", "Mtb cholesterol medium": 2.226}
{"compound": "CC(N)c1nc(-c2ccccc2)c[nH]1", "stereo": "centres undefined", "Mtb cholesterol medium": 0.4912, "Mtb glucose medium": 31.62}
{"compound": "CCN1CCN(c2ccc(C(C)=O)cc2)CC1", "Mtb cholesterol medium": -16.28}
{"compound": "NC(=O)CC1CCCC1", "Mtb cholesterol medium": 96.4, "Mtb glucose medium": -3.85}
{"compound": "COc1ccc(OC)c(C(O)CN2CCNC(=O)C2)c1", "stereo": "centres undefined", "Mtb glucose medium": 23.22}
{"compound": "O=C1CCNC(=O)CC1", "Mtb glucose medium": -13.04}
{"compound": "NCc1ccc(-c2ccccc2)o1", "Mtb glucose medium": 0.5297}
{"compound": "COC(=O)CC(C)(N)c1ccccc1", "stereo": "centres undefined", "Mtb glucose medium": -2.449}
{"compound": "COC1(CNC(=O)c2cc(Cl)ccn2)CCC1", "Mtb glucose medium": 47.68}
{"compound": "CC(=O)NCCCOCC1CCCO1", "stereo": "centres undefined", "Mtb glucose medium": 14.13}
{"compound": "COc1ncccc1-c1ccc(S(N)(=O)=O)s1", "Mtb cholesterol medium": 14.15}
{"compound": "CC(C(=O)Nc1ccc(S(N)(=O)=O)cc1)N1CCCC1", "stereo": "centres undefined", "Mtb glucose medium": 12.19}
{"compound": "COc1ccc(C(=O)NC(C)Cn2cccn2)c(O)c1", "stereo": "centres undefined", "Mtb cholesterol medium": 72.87, "Mtb glucose medium": 65.8}
{"compound": "Cc1ccc(C(C)NC(=O)Nc2ccc(=O)n(C)c2)o1", "stereo": "centres undefined", "Mtb glucose medium": 6.461}
{"compound": "OCCCN1CCC(=Cc2ccccc2)CC1", "Mtb cholesterol medium": 73.75, "Mtb glucose medium": 74.76}
{"compound": "N#CCc1c[nH]c2ccc(C(N)=O)cc12", "Mtb cholesterol medium": -11.63}
{"compound": "O=C(NCCc1noc(C2CCC2)n1)C1CCCO1", "stereo": "centres undefined", "Mtb glucose medium": 45.3}
{"compound": "Cc1ccc(NCc2cccc(O)c2)cc1S(C)(=O)=O", "Mtb cholesterol medium": 68.26, "Mtb glucose medium": 73.55}
{"compound": "CC(=O)N1CCN(Cc2ccc(Br)o2)CC1", "Mtb glucose medium": 15.15}
{"compound": "OCCC1(O)CCOc2ccccc21", "stereo": "centres undefined", "Mtb cholesterol medium": -11.39}
{"compound": "CC(C)N(CCOc1cccc(F)c1)CC(N)=O", "Mtb cholesterol medium": 50.26}
{"compound": "COC(=O)c1ccc(CN2CCCS(=O)(=O)CC2)o1", "Mtb cholesterol medium": -2.43, "Mtb glucose medium": 10.32}
{"compound": "CN(C1(C#N)CCC1)S(=O)(=O)c1cccs1", "Mtb glucose medium": 60.85}
{"compound": "CNS(=O)(=O)c1ccc(C(=O)NC(C)COC)cc1", "stereo": "centres undefined", "Mtb glucose medium": -8.535}
{"compound": "CC(C)Oc1cc(N2CCN(CCO)CC2)nc(N)n1", "Mtb cholesterol medium": 11.6}
{"compound": "CC(=O)NC1CCCN(c2cncc(Cl)n2)C1", "stereo": "centres undefined", "Mtb cholesterol medium": 7.284}
{"compound": "COCCNC(=O)C1CN(Cc2ccccc2)CCO1", "stereo": "centres undefined", "Mtb cholesterol medium": 32.25}
{"compound": "NCCc1nc(N)no1", "Mtb cholesterol medium": -7.559}
{"compound": "CN(CC(=O)Nc1cnc2ccccc2c1)S(C)(=O)=O", "Mtb glucose medium": 0.953}
{"compound": "Cc1cc(C)c(CNC(=O)CN2CSCC2=O)c(=O)[nH]1", "Mtb glucose medium": -3.574}
{"compound": "CCC(N)(CC)CNS(=O)(=O)c1cccnc1", "Mtb cholesterol medium": -2.214}
{"compound": "Cc1ccc(NC(=O)C(C)N2CCC(O)CC2)cc1F", "stereo": "centres undefined", "Mtb cholesterol medium": 54.47, "Mtb glucose medium": 61.53}
{"compound": "CCOc1ccc(S(=O)(=O)NC2CC2)cc1NC(C)=O", "Mtb glucose medium": 23.88}
{"compound": "Cc1cc(C)c(CNC(=O)C2CCCO2)c(=O)[nH]1", "stereo": "centres undefined", "Mtb cholesterol medium": 1.732}
{"compound": "NC(=O)CSc1nnc(-c2ccccc2)n1CCCO", "Mtb cholesterol medium": 5.663}
{"compound": "CCN1CCCN(C(=O)c2cc(C3CC3)on2)CC1=O", "Mtb glucose medium": 19.62}
{"compound": "Cc1cccc(OCC(O)Cn2ccnc2C)c1", "stereo": "centres undefined", "Mtb glucose medium": -5.322}

Once more, the final 3:

Compound,Mtb cholesterol medium,Mtb glucose medium
NC(=O)CSc1nnc(-c2ccccc2)n1CCCO,5.663%,-
CCN1CCCN(C(=O)c2cc(C3CC3)on2)CC1=O,-,19.62%
Cc1cccc(OCC(O)Cn2ccnc2C)c1 (centres undefined),-,-5.322%